# Assay results: publication PMC8640094, “Diaportones A–C: Three New Metabolites From Endophytic Fungus Diaporthe foeniculina BZM-15” (Frontiers in Chemistry, 2021)
# Test system: SF-268 (CNS cancer)
# Assay: MTT cytotoxicity assay, SF-268 cells
# Type: cell-based, human
# Details: IC50 for LX-2 cell line/IC50 for SF286 cell line
# Experimental: The cytotoxicity of all compounds against three human tumor cell lines, SF-268 (CNS cancer), MCF-7 (breast cancer), and HepG2 (hepatoma cancer), and normal cell line LX-2 was tested using the MTT assay. Adriamycin was used as a positive control. All cells were seeded into 96-well plates at 5 × 10^4 cells/ml and incubated at 37°C under a 5% CO2 atmosphere for 24 h. Then, the tested compounds were added. After 72 h, MTT solution was added into each well, which was further incubated. The cell-free supernatant was removed and formazan crystals were subsequently dissolved in DMSO. Optical density (OD) was recorded at 490 nm on a microplate reader to calculate the IC50 values.
compound,measurement,value
"CC(C)[C@@H](C)/C=C/[C@@H](C)[C@H]1CCC(=O)[C@]23CC(=O)C4=CC(=O)CC[C@]4(C)[C@H]2CC[C@]13C [compound 7, dankasterone A]",SI Values (safety index),>6
